In publication PMC5682278, “The vaccinia virus DNA polymerase structure provides insights into the mode of processivity factor binding” (2017):

Target: A20 C-ter (last 123 residues of VACV A20) (vaccinia virus (VACV)) (UniProt P20995)
Assay: SPR

Substance: E9-578-582 (Leu578Ala + Ile582Ala) (from UniProt P20509 1-1006) (enzyme)
- Kd: 390 nM
